Values quoted from earlier work, collected in patent US20050026902A1, “Methods and compositions for the treatment or prevention of human immunodeficiency virus and related conditions using cyclooxygenase-2 selective inhibitors and antiviral agents” (priority 2003, published 2005).

Settings: human, in vivo, po

Food Effect: Take with large meal
Substance: Loprnavir & Ritonavir [Lopinavir + Ritonavir]
